Here are results for three molecules from paper PMC3410853, “Structural Bases of Coronavirus Attachment to Host Aminopeptidase N and Its Inhibition by Neutralizing Antibodies” (PLoS Pathogens, 2012).

Assay [1] deals with porcine aminopeptidase N (pAPN) on the surface of BHK-pAPN cells (UniProt P15145). Description: flow cytometry on cells (FACS, percentage of stained cells). The note with it: same concentration of wild type and mutant SA-Fc proteins, parent: est. 100, read off a plot. For orientation: Flow cytometry measures light scatter and fluorescence of single cells or particles in a stream.

Assay [2] concerns the target T1, SA-Flag protein (monovalent SA-Flag variant; TGEV S residues 481 to 650) (Transmissible gastroenteritis virus …).
T1 chain: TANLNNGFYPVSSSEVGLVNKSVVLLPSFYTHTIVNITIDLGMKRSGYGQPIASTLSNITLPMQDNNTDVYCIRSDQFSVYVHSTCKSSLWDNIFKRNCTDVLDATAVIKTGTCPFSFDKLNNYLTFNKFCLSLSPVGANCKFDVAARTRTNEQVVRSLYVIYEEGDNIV
In words: crystal structure. To be noted: both partners purified.

As for “SA-Fc fusion protein (bivalent SA-Fc variant; TGEV S residues 481 to 650) Y528A”, the percent of parent in assay [1] is 1%.

Take “SA-Fc fusion protein (bivalent SA-Fc variant; TGEV S residues 481 to 650) W571A”: the percent of parent in assay [1] was found to be 3.5%.

B1: Fab fragment of the TGEV-neutralizing mAb 1AF10 (Fab, V domains shown)
VH: QVQLQQSGPELVKPGASVKISCKASGYAFSSSWMNWVKQRPGQGLEWIGRIYPGDGETNYSEKFKGKATLTADKSSSTAYMHLSSLTSVDSAVYFCARGGYRYDPYYAMDYWGQGTSVTVSS
VL: DILLTQSPAILSVSPGERVSLSCRASQSIGTSIHWYQQRTNGSPRPLIKYASESISGIPSRFSGSGSGTDFTLNINSVESEDIADYFCQQTDSWPTTFGAGTKLELK
notes: also called 1AF10 Fab; 1AF10-Fab fragment
Regarding B1, the binding result in assay [2] is on record as “binds”.
